From PMC12239557, “Structure and stabilization of the antigenic glycoprotein building blocks of the New World mammarenavirus spike complex” (mBio, 2025)

Target: JUNV GP1 subunit of the JUNV GP1^88-329GP2^e constructs (Junin virus, XJ13 (GenBank ACO52428), UniProt C1K9J9, strain, […] N-linked glycans ordered at Asn95, Asn166 and Asn178)
Conditions: both partners purified

B1: Fab fragment of neutralizing monoclonal antibody JUN1 (Fab, V domains shown)
VH: LVQSVETGGGLVRPGNSLKLSCVTSGFTFSNYQMHWLRQPPGKRLEWIAVITVKSDNYGANYVESVKGRFAISRDDSKSSVYLEMNRLREEDTATYFCSRSGIYDGYYAYAMDYWGQGTSVTVSS
VL: SVVMTQSQKFMSTSVGDRVSITCKASQIVGTSVAWYQQKAGQSPKLLIYWASTRHTGVPDRFTAGGSGTDFTLTITNVQSEDLADYFCQQYATYPLTFGSGTKLELK
- binding result: binds
